Pooled drug test results. Numbers come from NIAID ChemDB, via PubChem.

Shared fields: cytotoxicity tests; read-out: CC50

Two numbers with a dash give a range or band. An empty or dashed field is not shown. CCn is the concentration with n% toxicity to the cells. Rows are shuffled and stem from different studies.

smiles | read by | cell line | value
CN1CC[C@H](c2c(O)cc(O)c3c(=O)cc(-c4ccccc4Cl)oc23)[C@H](O)C1 | MTT | PM1 | >0.05 µM
C[C@H](Cn1cnc2c(N)ncnc21)OCP(=O)(O)O |  | CD4+ T lymphocytes | >250 µg/mL
O=c1[nH]cnc2c1ncn2[C@H]1CC[C@@H](CO)O1 |  | PBL | 2230 µM
COC(=O)[C@H](C)NP(=O)(OC[C@H]1O[C@@H](N2C(=O)NC(=O)C(C)(Br)C2OC)C[C@@H]1N=[N+]=[N-])Oc1ccccc1 |  | HUMAN SPERM | 35 µM
O=C(O)C1=CC(=C(c2ccc(O)c(C(=O)O)c2)c2ccc(O)c(C(=O)O)c2)C=CC1=O |  | SupT1 | 52 µg/mL
C[C@H]1[C@H](O)[C@@H](C)/C=C/C=C/C=C/C=C/C=C/C=C/C=C/[C@H](O[C@@H]2O[C@H](C)[C@@H](O)[C@H](N)[C@@H]2O)C[C@@H]2O[C@](O)(C[C@@H](O)C[C@@H](O)CC[C@H](O)[C@@H](O)C[C@@H](O)CC(=O)O[C@H]1C)C[C@H](O)[C@H]2C(=O)O |  | HeLa | 25 µg/mL
O=c1c2ccccc2ccc2ccccc12 |  | HELA-H1 | >200 µM
OCCN1CCN(CCCN2c3ccccc3Sc3ccc(Cl)cc32)CC1 | luminescence | n4mBid | 22 µM
COc1cc(OC)c2c(=O)c3c(O)c4c(c(OC)c3oc2c1O)OC(C)(C)C=C4 | XTT / absorbance | 1A2 | >337 µM
c1ccc2c(c1)oc1ccccc12 |  | HELA-H1 | >200 µM
Nc1ccn(C[C@@H](CO)OCP(=O)(O)O)c(=O)n1 |  | U87MG | 165 µg/mL
Nc1nc2c(ncn2C[C@H](CO)OCP(=O)(O)O)c(=O)[nH]1 |  | HSB-2 | 87 µM
CC1(C)[C@@H]2CC[C@@]1(C)C(=O)[C@H]2Br |  | HeLa | 50–100 µg/mL
O=C(O)P(=O)(O)O |  | U87MG | 200 µg/mL
COC(=O)[C@H](C)NP(=O)(OC[C@H]1C/C1=C\n1cnc2c(N)nc(N)nc21)Oc1ccccc1 |  | H-1 | >50 µM
O=c1[nH]c(=O)n([C@H]2C[C@H](O)[C@@H](CO)O2)cc1/C=C/Br |  | HSB-2 | 1.2 µM
OC1c2ccccc2CCc2ccccc21 |  | HELA-H1 | 150 µM
C[C@](Cl)([C@@H](Br)/C=C/[C@](C)(Cl)CBr)[C@@H](Br)CCl |  | KBV (-VBL) | 5.3 µg/mL
CN(C)C[C@@H]1C2CC(c3ccccc32)[C@H]1N |  | G-2 | >100 µg/mL
COc1cc(O)cc(O)c1C(=O)c1ccc(O)c(O)c1 | XTT / absorbance | 1A2 | >452 µM
CC1CC(OC(=O)C(O)c2ccccc2)CC(C)(C)C1 |  | HeLa | 20–100 µg/mL
NC12CC3CC(CC(C3)C1)C2 |  | G-2 | >100 µg/mL
Nc1ncnc2c1ncn2C[C@H]1COP(=O)(O)CO1 |  | HSB-2 | 146 µM
CC(=O)n1cc(CCN)c2cc(O)ccc21 | luminescence | n4mBid | >30 µM
O=C1N(Cc2ccc(CO)cc2)[C@H](Cc2ccccc2)[C@H](O)[C@@H](O)[C@@H](Cc2ccccc2)N1Cc1ccc(CO)cc1 |  | MT-2/MT-4 | 67.5 µM
COc1ccc(NC(=O)c2ccc(-c3ccc(-c4noc(C)n4)cc3C)cc2)cc1N1CCN(C)CC1 | luminescence | n4mBid | 7 µM
COc1cc(-c2ccc(O)cc2)cc(OC)c1O | XTT / absorbance | 1A2 | 75.57 µM
Fc1ccccc1CCNC(=S)Nc1ccc(Br)cn1 |  | HUMAN SPERM | 147 µM
COC(=O)[C@H](C)NP(=O)(OC[C@H]1C/C1=C/n1cnc2c(=O)[nH]c(N)nc21)Oc1ccccc1 |  | MEF | >206 µM
C[C@@H]1CC[C@@]2(OC1)O[C@H]1[C@@H](O)[C@H]3[C@@H]4CC[C@H]5C[C@@H](O[C@@H]6O[C@H](CO)[C@H](O[C@@H]7O[C@H](CO)[C@@H](O)[C@H](O[C@@H]8OC[C@@H](O)[C@H](O)[C@H]8O)[C@H]7O[C@@H]7O[C@H](CO)[C@H](O)[C@H](O[C@@H]8O[C@H](CO)[C@@H](O)[C@H](O)[C@H]8O)[C@H]7O)[C@H](O)[C@H]6O)[C@H](O)C[C@]5(C)[C@H]4CC[C@]3(C)[C@H]1[C@@H]2C |  | HeLa | 0.15 µg/mL
OC(CCN1CCCCC1)(c1ccccc1)C1CC2C=CC1C2 | luminescence | n4mBid | 30 µM
Nc1ncnc2c1ncn2[C@@H]1O[C@H](COP(=O)(O)OS(=O)(=O)O)[C@@H](O)[C@H]1O |  | HeLa | >1000 µM
CC(=O)OC(C1C=C(C)C(=O)O1)C(C)C1C2C3(O)OC4(CCC12C)C(=CCC1C(C)(C)OC2CC(=O)OC21C4O)C3=O | MTT | MDA-MB-231 | 3.06 µg/mL
CC1=C(/C=C/C(C)=C/C=C/C(C)=C/C=O)C(C)(C)CCC1 |  | HeLa | 100 µg/mL
Nc1ncnc2c1ncn2CCOCP(=O)(O)O |  | CD4+ T lymphocytes | 54 µg/mL
CCOC(=O)C1=C(C)NC(C)=C(C(=O)OC)C1c1cccc(Cl)c1Cl | luminescence | n4mBid | >30 µM
Nc1ncnc2c1ncn2CCOCP(=O)(O)O |  | F-PBMC | 24 µM
COc1nc(N)nc2c1ncn2C=C1CC1CO |  | MEF | 261 µM
CCn1cc(C(=O)O)c(=O)c2cnc(N3CCNCC3)nc21 |  | HeLa | 200 µg/mL
O=c1[nH]c(=O)n([C@H]2C[C@H](O)[C@@H](CO)O2)cc1/C=C/Br |  | SupT1 | 20 µg/mL
C[C@H](Cn1cnc2c(N)ncnc21)OCP(=O)(O)O |  | CrFK | >50 µM
COC(=O)[C@H](C)NP(=O)(OC[C@H]1O[C@@H](N2C(=O)NC(=O)C(C)(Br)C2OC)C[C@@H]1N=[N+]=[N-])Oc1ccc(OC)cc1 |  | HUMAN SPERM | 29 µM
Nc1ccn(C[C@@H](CO)OCP(=O)(O)O)c(=O)n1 |  | HSB-2 | 141 µM
O=c1c2cc(O)ccc2oc2cc(O)cc(O)c12 | XTT / absorbance | 1A2 | 120 µM
COC(=O)[C@H](C)NP(=O)(OCC1C/C1=C/n1cnc2c(N)ncnc21)Oc1ccccc1 |  | 2.2.15 | 0.3 µM